Key:
[1] = Stability in 90% human serum assessed as proteolytic degradation at 0.1 mg/ml measured up to 24 hrs by RP-HPLC analysis
[2] = biological target: Neuronal acetylcholine receptor; alpha9/alpha10 (Homo sapiens, UniProt Q9UGM1+Q9GZZ6); assay: Antagonist activity at human alpha9alpha10 nAChR expressed in Xenopus laevis oocytes assessed as inhibition of Ach-induced response measured after 5 mins by two electrode voltage-clamp assay

Protein sequences, listed by entry. Tags and fused reporters are not part of them. Residues count along the entry.
UniProt Q9UGM1, 23-479 limits assumed: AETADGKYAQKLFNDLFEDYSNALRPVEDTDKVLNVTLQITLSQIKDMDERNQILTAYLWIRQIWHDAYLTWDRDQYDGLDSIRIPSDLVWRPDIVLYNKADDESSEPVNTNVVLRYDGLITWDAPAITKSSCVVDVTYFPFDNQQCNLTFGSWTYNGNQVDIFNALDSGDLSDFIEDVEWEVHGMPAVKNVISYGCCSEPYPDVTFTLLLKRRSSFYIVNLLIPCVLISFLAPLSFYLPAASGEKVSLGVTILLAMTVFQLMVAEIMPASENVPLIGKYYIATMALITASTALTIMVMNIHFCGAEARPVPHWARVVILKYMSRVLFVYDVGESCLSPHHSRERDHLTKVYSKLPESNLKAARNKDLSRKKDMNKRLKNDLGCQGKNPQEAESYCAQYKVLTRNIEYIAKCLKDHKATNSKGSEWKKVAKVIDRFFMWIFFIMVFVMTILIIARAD
UniProt Q9GZZ6, 25-450 limits assumed: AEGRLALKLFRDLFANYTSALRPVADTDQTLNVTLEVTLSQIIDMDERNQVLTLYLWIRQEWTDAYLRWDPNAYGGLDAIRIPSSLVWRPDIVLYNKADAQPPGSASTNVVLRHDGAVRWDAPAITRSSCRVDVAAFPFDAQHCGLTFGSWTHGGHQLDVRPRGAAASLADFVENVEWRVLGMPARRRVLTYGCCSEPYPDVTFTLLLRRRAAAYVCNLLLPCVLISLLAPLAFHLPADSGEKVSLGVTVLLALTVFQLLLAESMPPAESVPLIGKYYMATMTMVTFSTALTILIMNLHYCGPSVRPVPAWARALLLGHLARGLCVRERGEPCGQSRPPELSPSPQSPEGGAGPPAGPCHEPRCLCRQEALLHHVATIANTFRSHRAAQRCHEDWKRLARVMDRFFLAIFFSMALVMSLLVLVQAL

Row | Structure (SMILES) | Stability [1] | IC50 [2] [nM]
1 | C[C@@H](O)[C@@H]1NC(=O)[C@@H]2CSSC[C@@H]3NC(=O)[C@H](CCC(N)=O)NC(=O)[C@H](Cc4ccc(O)c(I)c4)NC(=O)[C@H](CCCNC(=N)N)NC(=O)[C@H](CSSC[C@H](NC(=O)CNC(=O)[C@@H](N)CCC(=O)NCCCC[C@H](C(=O)O)NC(=O)[C@H](Cc4ccc(O)cc4)NC3=O)C(=O)N2)NC(=O)[C@H](CCCNC(=N)N)NC(=O)[C@@H]2CCCN2C(=O)[C@H](CC(=O)O)NC1=O | Stable | 
2 | C[C@@H](O)[C@H](NC(=O)[C@H](CS)NC(=O)[C@H](CS)NC(=O)CN)C(=O)N[C@@H](CC(=O)O)C(=O)N1CCC[C@H]1C(=O)N[C@@H](CCCNC(=N)N)C(=O)N[C@@H](CS)C(=O)N[C@@H](CCCNC(N)=O)C(=O)N[C@@H](Cc1ccc(O)c(I)c1)C(=O)N[C@@H](CCC(N)=O)C(=O)N[C@@H](CS)C(=O)N[C@@H](Cc1ccc(O)cc1)C(=O)O | Stable | 1.5
